Data reported in PMC7923509.

The sequences below were run on His-QsvR (Vibrio parahaemolyticus) (assay: EMSA). Settings: EMSA: 10 mM Tris-HCl pH 7.5, 50 mM NaCl, 1 mM MgCl2, 0.5 mM EDTA, 0.5 mM DTT, 10 ul; recombinant protein; residues 1-267; protein details: 6xHis (pET28a); label: 5'-32P; probe letters rebuilt from the primers and the genome.

Row | Sequence | binding result
1 | GTTTGTTTGCTCGGATTGTTTGTGGCAAACACATAATAACTATTAACTACCTATTATTACGTTTCTTCCAACATTCCTACGTGGTACTTGATGCAGCTTTTCGATTTCGAAGGGCTGCATTTTTATTCCCTCTCGTTCATTTCTATTCATTGTTTAATTGCAGATTATTTGACTGATACGCGCAAATTTGCGCCAAAGACATAGGCTGTGTTTTTTGGTCCGTTGGTTATTGATAGGTGGGGTAAATGTGTTTCGATGTTTGTTCTTAGTCTTATCAATTTGCTAAATACATACTCAAAGAGTGTGGTTTTAGTTGTTTTATAGTTTTTTATGTTTTTTTCAATTTGTTGATTTTAAATGATTAAATACCTAAGTGGCTAAAATTTAGTGATTAAATATCAATCTAGTTGCTAAACCCCAATCGATTAGTTGATAGTACGCTTCGAGCCGGAAGTATCCGGACGATAAATATAATAAAAATTAGGTTTCTATTCGTAAAAATGATTCGAATCCAGCCGCCGTCTTTTGTGCGAGATGGGATTCTATTCGTTATGAATTCATTGAAACAATTTGACGATTACAAAAGAGGCGCACTCAATGTTAGAGAAGAAAGATGCGATGAGCGCAATTGCTAGCTACCGTATGGAAAGCACTTTG (double strand) [calR promoter EMSA probe] | binds
2 | GATTTCAGGCTTTTCCGTGTACTGTTCCATAATGTTTCTCATACTTTCATTAACTTAAGATTCTTAATTTCGTAGTTAATTATCAGCACTCAAGCTCATATCTAAGTGCTAGACAACAGAGTAAAGTTATTTACTACCTTTTTGAATTACTAATTTATTAAAAACAGAAACAAAAAAAGTGTTTCTCATAAAAGAAACACTTTTAACTAAGGCTATTTTTAAAAAAATATACGTATGCACTAAATTAGTTAGGTATTTTTTATAAAATCAAACCATCTCTATAGAGTGATCTGAAATATTTTCTTTTGCCCAAATCAGTGCTTGTACTCTGTTTTTTACATCAATCTTTTTAAAAATATTGTGAAGATGCGTTTTAACTGTATTTTCGCTTACAAATAACTGTTCGGCTATTTGTTGATTAGAGGCCCCCATAGATAAAAACGTAATGATCTGTTGTTCTCGCTTAGTCAGTATTGCTGGAAC (double strand) [cpsQ promoter EMSA probe] | binds
3 | CGAGCGAATTACTATTTGGATCAAAGGTAAACCTTTGAGCAAGTAGAAATTTGGTGCCGATGTTAGTCATTTAGTTCTTCTTAGATGGATGATGTTGTAATTATGGTGATTTATATCACAAAATTACGTTTGCGCATGGGAGATACGCGACGTTTTAGATGCTTTTAGGGGGGTAGGATAATTAAATTTTTCTAAAAAAACACCGTTTTTAGCAATATTGACCTTGAATTTACATTTGTCAGCCACATGTTAAATGACATCTTAGTGTGGTGATTTCATGGGGCTAAATCACAAAGTCGTCCCTGAAAAAGCCTGTTAGTTTAGATGTTATGGAGCACACATGAGCGAAACCGTATCTCAAAATAAAGAAACTCGTGGTTTTCAATCAGAAGTAAAACAACTACTTCATTTAATGATCCATTCTCTTTATTCCAATAAAGAGATCTTTTTGCGCGAGCTGATTTCTAACGCATCAGATGCATCAGACAAATTGCGTTTTCAGGCACTTTCGAATCCAGATTTATATGAAGGTAACGCAGATCTTGGCGTTAAGCTGTCATTTGATGAAAGTGCAAATACCTTAACGAT (double strand) [toxR promoter EMSA probe] | binds

What follows are sequences tested on His-QsvR (Vibrio parahaemolyticus) (assay: DNase I footprinting). Settings: 5 mM CaCl2 and 10 mM MgCl2 solution added before digestion; footprinting: same binding buffer, room temperature, 30 min; recombinant protein; residues 1-267; protein details: 6xHis (pET28a); label: 5'-32P on one strand (coding or noncoding); probe letters rebuilt from the primers and the genome.

Row | Sequence | binding result
4 | ACATACTATTAAATCGCATCTATACAATATTTTTAGAAAGTTAGAAGTGAAAAATAGGACGCAAGCCACAAGTTGGGCAAAAAGAAACCTCTAGTACTAGGAATAACTGCATGTAATTAAAAGAAAACAATAGATAAAGTACTAAGTTTTATATTTATAATTAAAAGGTCAGTTAGAAATATCATCCCATATTCAAACTCATTCTTATCCACTTGGCTATTAGACTTCTCATGTCTGGAACGAATCTCATCAGACGTGGAATAAAAGGTCTATTCAATAAATAAGCCAGAGGGAAT (double strand) [mfpA footprinting probe] | binds
5 | TACCTAACTAATTTAGTGCATACGTATATTTTTTTAAAAATAGCCTTAGTTAAAAGTGTTTCTTTTATGAGAAACACTTTTTTTGTTTCTGTTTTTAATAAATTAGTAATTCAAAAAGGTAGTAAATAACTTTACTCTGTTGTCTAGCACTTAGATATGAGCTTGAGTGCTGATAATTAACTACGAAATTAAGAATCTTAAGTTAATGAAAGTATGAGAAACATTATGGAACAGTACACGGAAAAGCCTGAAATC (double strand) [cpsQ footprinting probe] | binds
6 | TTTCAGGGACGACTTTGTGATTTAGCCCCATGAAATCACCACACTAAGATGTCATTTAACATGTGGCTGACAAATGTAAATTCAAGGTCAATATTGCTAAAAACGGTGTTTTTTTAGAAAAATTTAATTATCCTACCCCCCTAAAAGCATCTAAAACGTCGCGTATCTCCCATGCGCAAACGTAATTTTGTGATATAAATCACCATAATTACAACATCATCCATCTAAGAAGAACTAA (double strand) [toxR footprinting probe] | binds

For at least one entry, the source does not settle the construct or the ends of the probe.
